Results of unrelated studies side by side (data: NIAID ChemDB).

All rows: tests in culture

Blank or dashed fields: not listed here. Two numbers with a dash give a range or band. Percent inhibition refers to the dose given; in toxicity tests it is the harm to the cells. ECn is the concentration giving n% inhibition of infection, replication or growth. Lines come from different laboratories, so protocols vary. Fold resistance: result on the changed form divided by that on wild type. A number after MIC or MFC names an inhibition level or a share of isolates.

SMILES	method	strain	tested at	mutations	cells	read-out	organism	result
COc1cc(C[C@H](C)[C@H](C)Cc2ccc(O)c(O)c2)ccc1O	broth dilution	CCC 131-1997				MIC50	Candida tropicalis	31.25 µg/mL
COc1cc(Cc2cnc(N)nc2N)cc(OC)c1OC		Isolate 94-539				MBC	Mycobacterium ulcerans	>32 µg/mL
O=c1cnn([C@@H]2O[C@H](CO)[C@@H](O)[C@H]2O)c(=O)[nH]1	cytopathic effect	TYPE 4 (YUNH)			VERO	EC50	Dengue virus	0.1 µg/mL
Nc1nc2c(ncn2COC(CO)CO)c(=O)[nH]1	plaque count	WILD TYPE			C1271	EC50	Mouse cytomegalovirus	6 µM
CCCCNC(=O)n1c(NC(=O)OC)nc2ccccc21		ATCC 14116				EC50	Cryptococcus neoformans	2 µg/mL
Nc1nc2c(ncn2CC(CO)OCP(=O)(O)O)c(=O)[nH]1	plaque count	Ganciclovir-resistant			C1271	EC50	Mouse cytomegalovirus	2.6 µM
CC(=O)NC[C@H]1CN(c2ccc(N3CCOCC3)c(F)c2)C(=O)O1		Oxacillin-susceptible				MIC50	Staphylococcus aureus	1–4 µg/mL
Nc1nc(N)c2ncn(CCOCP(=O)(O)O)c2n1	plaque count	PCV-resistant/B			HEL	EC50	Varicella zoster virus	3.5 µg/mL
CC(=O)Oc1ccccc1C(=O)Nc1ncc([N+](=O)[O-])s1			1 µg/mL		RK-13	inhibition	Encephalitozoon intestinalis	57.5%
Nc1nccc2c1ncn2[C@@H]1C[C@H](CO)[C@@H](O)[C@H]1O	cytopathic effect				HEP-2	EC50	Vesicular stomatitis virus	0.07 µg/mL
OC(Cn1cncn1)(Cn1cncn1)c1ccc(F)cc1F	broth dilution	YL 370				MIC	Candida albicans	>512 µg/mL
NC(=O)c1ncn([C@@H]2O[C@H](CO)[C@@H](O)[C@H]2O)n1	neutral red	Chicago			CV-1	EC50	Measles virus	20 µg/mL
O=c1c(O)c(-c2ccc(O)c(O)c2)oc2cc(O)cc(O)c12	broth dilution	Clinical isolate 4				MIC50	Candida tropicalis	>128 µg/mL
NC(=O)c1nc(F)c[nH]c1=O	plaque count	H1N1 FM/1/47			MDCK	EC50	Influenza A virus	0.2 µg/mL
Nc1ncnc2c1ncn2[C@@H]1C=C[C@@H](O)[C@H]1O	virus yield				MA-104	EC90	Rotavirus A	0.5 µg/mL
COc1ccc2cc3[n+](cc2c1OC)CCc1cc2c(cc1-3)OCO2			0.01 µg/mL		RK-13	inhibition	Encephalitozoon intestinalis	41%
Nc1ncnc2c1ncn2CCOCP(=O)(O)O	cytopathic effect	KOS PMEA-resistant			HEL	EC50	Herpes simplex virus 1	68 µg/mL
CO[C@H]1[C@@H](OC(=O)/C=C/C=C/C=C/C=C/C(=O)O)CC[C@@]2(CO2)[C@@H]1[C@@]1(C)O[C@@H]1CC=C(C)C	cytopathic effect		0.0001 µg/mL		MRC-5 fibroblasts	inhibition	Encephalitozoon cuniculi	10%
CC(C)=CCN1c2cc(Cl)cc3[nH]c(=S)n(c23)C[C@@H]1C				RT-M41L T215Y K103N	MT-4	EC50	HIV-1	<0.8 µM
CCCSc1ccc2nc(NC(=O)OC)[nH]c2c1	cytopathic effect				MRC-5 fibroblasts	EC50	Encephalitozoon cuniculi	<0.01 µg/mL
C[C@@H](c1nc(-c2ccc(C#N)cc2)cs1)[C@](O)(Cn1cnnc1)c1ccc(F)cc1F		Isogenic isolate 16 CDR				MIC	Candida albicans	0.25 µg/mL
NC1CCN(c2c(F)cc3c(=O)c(C(=O)O)cn(C4CC4)c3c2Cl)C1		20 strains (oxacillin-susceptible)				MIC90	Staphylococcus aureus	0.03 µg/mL
Nc1nc2c(ncn2CCC(CO)CO)c(=O)[nH]1	plaque count	BVDU-resistant			HEL	EC50	Varicella zoster virus	5.8 µg/mL
Nc1nc2c(ncn2COCOCP(=O)(O)O)c(=O)[nH]1	virus yield	14702 (TYPE 3)				EC90	Parainfluenza virus	11 µg/mL
COc1cc(NCc2cnc3nc(N)nc(N)c3c2C)cc(OC)c1OC			1 µg/mL		RK-13	inhibition	Encephalitozoon intestinalis	81.8%
CC[C@H]1OC(=O)[C@H](C)[C@@H](O[C@H]2C[C@@](C)(OC)[C@@H](O)[C@H](C)O2)[C@H](C)[C@@H](O[C@@H]2O[C@H](C)C[C@H](N(C)C)[C@H]2O)[C@](C)(OC)C[C@@H](C)C(=O)[C@H](C)[C@@H](O)[C@]1(C)O	broth dilution	X3				MIC	Mycobacterium abscessus	2 µg/mL
CCCN1CCN(c2cc(=O)c3nc4c(oc3c2)c2c(=O)c3c(O)c(C)c5c(c34)=C(O)[C@@](C)(O/C=C/[C@H](OC)[C@@H](C)[C@@H](OC(C)=O)[C@H](C)[C@H](O)[C@H](C)[C@@H](O)[C@@H](C)/C=C/C=C(/C)C(=O)N2)O5)CC1		20 strains (methicillin-susceptible)				MIC50	Staphylococcus aureus	0.0039 µg/mL
Nc1ncnc2c1ncn2C[C@@H](CO)OCP(=O)(O)O	plaque count	PMEA-resistant			HEL	EC50	Varicella zoster virus	0.027 µg/mL
C[C@@]1(O)[C@H](O)[C@@H](CO)O[C@H]1c1coc2c(N)ncnc12	MTT		10 µg/mL		HeLa-5B	inhibition	Hepatitis C virus	11.56%
Nc1ncnc2c1ncn2Cc1c(F)cccc1Cl	cytopathic effect				MRC-5 fibroblasts	EC50	Encephalitozoon cuniculi	>15 µg/mL
CO[C@H]1[C@@H](OC(=O)/C=C/C=C/C=C/C=C/C(=O)O)CC[C@@]2(CO2)[C@@H]1[C@@]1(C)O[C@@H]1CC=C(C)C			0.0001 µg/mL		RK-13	inhibition	Vittaforma corneae	24.5%
Nc1ccnc2c1ncn2[C@H]1C=C[C@@H](OCP(=O)(O)O)O1	virus yield	13306 (TYPE 8)				EC90	Adenovirus	0.1 µg/mL
CN(C)[C@@H]1C(=O)C(C(N)=O)=C(O)[C@@]2(O)C(=O)C3=C(O)c4c(O)c(NC(=O)CNc5ccccc5)cc(F)c4C[C@H]3C[C@@H]12	agar diffusion	106-49619				EC50	Streptococcus pneumoniae	2 µg/mL
CN(C)c1ccc(O)c2c1C[C@H]1C[C@H]3[C@H](N(C)C)C(=O)C(C(N)=O)=C(O)[C@@]3(O)C(=O)C1=C2O		25 strains (ofloxacin-resistant)				MIC50	Staphylococcus aureus	8 µg/mL
C[C@@H]1CN(c2c(F)c(N)c3c(=O)c(C(=O)O)cn(C4CC4)c3c2F)C[C@H](C)N1		Clinical isolate SP30				MIC	Streptococcus pneumoniae	0.25 µg/mL
CCCOc1ccc2nc(NC(=O)OC)[nH]c2c1		IU8698				EC50	Cryptococcus neoformans	1 µg/mL
O=C(O)P(=O)(O)O	cytopathic effect	KOS PMEDAP-resistant			HEL	EC50	Herpes simplex virus 1	106.3 µg/mL
CC(C)(C)OC(=O)N[C@@H]1CCCCC/C=C\[C@@H]2C[C@@]2(C(=O)NS(=O)(=O)C2CC2)NC(=O)[C@@H]2C[C@@H](OC(=O)N3Cc4cccc(F)c4C3)CN2C1=O	antigen	JFH-1			Huh7.5	EC50	Hepatitis C virus	0.055 µM
CCO/N=C/c1ccc(OCCC2CCN(c3ccc(C)nn3)CC2)cc1	neutral red	353 (ICAM-1 receptor group 13)			KB	EC50	Rhinovirus	0.109 µM
CC(C)(CO)C(=O)SCCOP(=O)(NCc1ccccc1)OC[C@H]1O[C@@H](n2cnc3c(=O)[nH]c(N)nc32)[C@](C)(O)[C@@H]1O	replicon	GT1a		K24E	Replicon cells	fold resistance	Hepatitis C virus	1.6
Nc1ncnc2c1ncn2C[C@@H](CO)OCP(=O)(O)O	plaque count	WILD TYPE			C1271	EC50	Mouse cytomegalovirus	0.9 µM
CCC(C)n1ncn(-c2ccc(N3CCN(c4ccc(OC[C@H]5CO[C@](Cn6cncn6)(c6ccc(Cl)cc6Cl)O5)cc4)CC3)cc2)c1=O	cytopathic effect		1 µg/mL		MRC-5 fibroblasts	inhibition	Encephalitozoon cuniculi	31%
C[C@H]1NCc2cc(-c3ccc4c(=O)c(C(=O)O)cn(C5CC5)c4c3OC(F)F)ccc21		25 strains (ofloxacin-resistant)				MIC90	Staphylococcus aureus	8 µg/mL
Nc1ccc(S(=O)(=O)Nc2ncccn2)cc1	cytopathic effect		2 µg/mL		MRC-5 fibroblasts	inhibition	Encephalitozoon cuniculi	0%
COc1cc2oc(=O)ccc2cc1CC(O)C(C)(C)O		ESBL-3967				MIC	Klebsiella pneumoniae	62.5 µg/mL
CCCCCCCCCC(=O)N[C@H]1[C@H](Oc2c3cc4cc2Oc2ccc(cc2Cl)[C@@H](O[C@@H]2O[C@H](CO)[C@@H](O)[C@H](O)[C@H]2NC(C)=O)[C@@H]2NC(=O)[C@H](NC(=O)[C@@H]4NC(=O)[C@H]4NC(=O)[C@@H](Cc5ccc(c(Cl)c5)O3)NC(=O)[C@H](N)c3ccc(O)c(c3)Oc3cc(O)cc4c3)c3ccc(O)c(c3)-c3c(O[C@H]4O[C@H](CO)[C@@H](O)[C@H](O)[C@@H]4O)cc(O)cc3[C@H](C(=O)O)NC2=O)O[C@H](CO)[C@@H](O)[C@@H]1O		25 strains (methicillin-susceptible)				MIC90	Staphylococcus aureus	0.5 µg/mL
Nc1nc2c(ncn2COC(COCP(=O)(O)O)COCP(=O)(O)O)c(=O)[nH]1	plaque count	Ganciclovir-resistant			C1271	EC50	Mouse cytomegalovirus	5.2 µM
Nc1ncnc2c1ncn2[C@@H]1O[C@H](CO)[C@@H](O)[C@@H]1O	cytopathic effect	KOS PMEA-resistant			HEL	EC50	Herpes simplex virus 1	11.9 µg/mL
COC(=O)Nc1nc2ccc(C(=O)c3cccs3)cc2[nH]1		IU8698				EC50	Cryptococcus neoformans	<0.12 µg/mL
C[C@@]1(O)[C@H](O)[C@@H](CO)O[C@H]1c1c[nH]c2c(N)ncnc12	MTT		10 µg/mL		HeLa-5B	inhibition	Hepatitis C virus	11.56%
NC(=O)c1ncn([C@@H]2O[C@H](CO)[C@@H](O)[C@H]2O)n1	plaque count	Y751			HEP-2	EC50	Respiratory syncytial virus	10.5 µM
CCCSc1ccc2nc(NC(=O)OC)[nH]c2c1			10 µg/mL		RK-13	inhibition	Vittaforma corneae	93.8%
C[C@@H]1CN(c2c(F)c(N)c3c(=O)c(C(=O)O)cn(C4CC4)c3c2F)C[C@H](C)N1		38 strains (ampicillin-susceptible)				MIC50	Haemophilus influenzae	0.008 µg/mL
Nc1nc2c(ncn2CCC(CO)CO)c(=O)[nH]1	cytopathic effect	KOS			HEL	EC50	Herpes simplex virus 1	0.044 µg/mL
CC(=O)NC[C@H]1CN(c2ccc(N3CCOCC3)c(F)c2)C(=O)O1		25 strains (methicillin-susceptible)				MIC90	Staphylococcus aureus	2 µg/mL
Nc1ncnc2c1ncn2[C@H]1CC[C@@H](CO)O1	virus yield	LAV-2	0.1 µM		U-937	inhibition	HIV-2	60%
Cc1onc(-c2ccccc2)c1C(=O)N[C@@H]1C(=O)N2[C@@H]1SC(C)(C)[C@@H]2C(=O)O		24 strains (ofloxacin-susceptible)				MIC90	Staphylococcus aureus	>128 µg/mL
COc1cc(Cc2cnc(N)nc2N)cc(OC)c1Br		Isolate 5143				MIC	Mycobacterium ulcerans	2 µg/mL
C#Cc1c(C(N)=O)ncn1[C@@H]1O[C@H](CO)[C@@H](O)[C@H]1O	plaque count	TYPE 3/C243			VERO	EC50	Parainfluenza virus	1.16 µg/mL
C#CC[C@@H](C(=O)N[C@H](/C=C/C(=O)OCC)C[C@@H]1CCNC1=O)n1cccc(NC(=O)c2cc(C)on2)c1=O	cytopathic effect / XTT	Serotype 1A			H1-HELA	EC50	Rhinovirus	0.036 µM
COc1ccc2c(O[C@@H]3C[C@H]4C(=O)N[C@]5(C(=O)NS(=O)(=O)C6CC6)C[C@H]5/C=C\CCCCN(C)C(=O)[C@@H]4C3)cc(-c3nc(C(C)C)cs3)nc2c1C	antigen	NZL1			Huh7.5	EC50	Hepatitis C virus	2.061 µM
Nc1ccn(C[C@@H](CO)OCP(=O)(O)O)c(=O)n1	virus yield	TRIM (TYPE 8)				EC90	Adenovirus	2 µg/mL
Nc1ncnc2c1ncn2[C@@H]1C=C(CO)[C@@H](O)[C@H]1O	cytopathic effect				VERO	EC50	Sindbis virus	>10 µg/mL
Nc1ccc(S(=O)(=O)Nc2ncccn2)cc1			1 µg/mL			inhibition	Toxoplasma gondii	40%
CO[C@H]1/C=C/O[C@@]2(C)Oc3c(C)c(O)c4c(=O)c(c5oc6cc(N7CCN(CC(C)C)CC7)cc(=O)c6nc5c4c3=C2O)NC(=O)/C(C)=C\C=C\[C@H](C)[C@H](O)[C@@H](C)[C@@H](O)[C@@H](C)[C@H](OC(C)=O)[C@@H]1C		16 strains (methicillin- quinolone-resistant)				MIC50	Staphylococcus aureus	0.0078 µg/mL
CN(C)c1cc(NC(=O)CNC(C)(C)C)c(O)c2c1C[C@H]1C[C@H]3[C@H](N(C)C)C(=O)C(C(N)=O)=C(O)[C@@]3(O)C(=O)C1=C2O	broth dilution	X51				MIC	Mycobacterium abscessus	1 µg/mL
O=C(O)P(=O)(O)O	plaque count	PMEA-resistant			HEL	EC50	Varicella zoster virus	70.3 µg/mL
Nc1ccn(C[C@@H](CO)OCP(=O)(O)O)c(=O)n1	cytopathic effect	KOS			HEL	EC50	Herpes simplex virus 1	0.15 µg/mL

For reference, 7 entries again:

SMILES	method	strain	tested at	mutations	cells	read-out	organism	result
Nc1nc2c(ncn2COC(COCP(=O)(O)O)COCP(=O)(O)O)c(=O)[nH]1	plaque count	Ganciclovir-resistant			C1271	EC50	Mouse cytomegalovirus	5.2 µM
C[C@@H]1CN(c2c(F)c(N)c3c(=O)c(C(=O)O)cn(C4CC4)c3c2F)C[C@H](C)N1		38 strains (ampicillin-susceptible)				MIC50	Haemophilus influenzae	0.008 µg/mL
O=c1cnn([C@@H]2O[C@H](CO)[C@@H](O)[C@H]2O)c(=O)[nH]1	cytopathic effect	TYPE 4 (YUNH)			VERO	EC50	Dengue virus	0.1 µg/mL
CC(=O)NC[C@H]1CN(c2ccc(N3CCOCC3)c(F)c2)C(=O)O1		Oxacillin-susceptible				MIC50	Staphylococcus aureus	1–4 µg/mL
CCCCNC(=O)n1c(NC(=O)OC)nc2ccccc21		ATCC 14116				EC50	Cryptococcus neoformans	2 µg/mL
Nc1ncnc2c1ncn2[C@@H]1C=C[C@@H](O)[C@H]1O	virus yield				MA-104	EC90	Rotavirus A	0.5 µg/mL
COc1ccc2c(O[C@@H]3C[C@H]4C(=O)N[C@]5(C(=O)NS(=O)(=O)C6CC6)C[C@H]5/C=C\CCCCN(C)C(=O)[C@@H]4C3)cc(-c3nc(C(C)C)cs3)nc2c1C	antigen	NZL1			Huh7.5	EC50	Hepatitis C virus	2.061 µM